The record followed here is article PMC4802734 (Cell Chemical Biology, 2016).

Chains of the proteins cited; added tags and fusions are not shown. Residues count along the entry.
UniProt P22262, 7-237 limits assumed: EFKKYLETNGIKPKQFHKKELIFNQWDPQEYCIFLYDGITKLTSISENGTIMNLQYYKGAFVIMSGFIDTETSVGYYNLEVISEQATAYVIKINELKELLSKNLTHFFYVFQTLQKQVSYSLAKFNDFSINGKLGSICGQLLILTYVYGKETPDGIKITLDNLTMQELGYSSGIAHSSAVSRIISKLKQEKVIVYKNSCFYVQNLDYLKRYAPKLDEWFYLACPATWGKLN

pKd: −log10 of the molar value.

The target in this test is T1, PrfAWT (Listeria monocytogenes serovar 1/2a, UniProt P22262).
T1 construct: followed by residues Glu7-N237; vector-derived N-terminal tail […]; (left after thrombin cleavage; inferred from pET28a and Ni-NTA capture), removed by thrombin (N, cleaved yes); made in house; host or cells: E. coli BL21(DE3)
Nature of the test: Isothermal titration calorimetry (ITC), binding to purified PrfAWT. The note with it: determined at 293 K.

Take `Cc1ccc(Cc2cc(=O)n3c(c2C2CC2)SC[C@H]3C(=O)O)c2ccccc12` [compound 2]: the pKd is 5.17; the “ΔHA, enthalpy of association” value is -6.5 kcal/mol; the “ΔSA, entropy of association” value stood at 2.8 cal/mol·K.
With `O=C(O)[C@@H]1CSc2c(C3CC3)c(Cc3cnc4ccccc4c3)cc(=O)n21` [compound 3], the pKd was 5.80; the “ΔHA, enthalpy of association” value is -8.4 ± 0.2 kcal/mol; the “ΔSA, entropy of association” value is −1.5 ± 0.9 cal/mol·K.

As usually defined, the pKd is −log10 of the Kd, conventionally taken in molar units. A low value points to a high Kd.
